Assay results published in PMC12749166, “Fragment-based drug design of a bacterial kinase inhibitor capable of increasing the antibiotic sensitivity of clinical isolates” (Communications Chemistry, 2025).

Protein sequences, listed by entry. Tags and fused reporters are not part of them. Residues count along the entry.
UniProt O68183, 1-301: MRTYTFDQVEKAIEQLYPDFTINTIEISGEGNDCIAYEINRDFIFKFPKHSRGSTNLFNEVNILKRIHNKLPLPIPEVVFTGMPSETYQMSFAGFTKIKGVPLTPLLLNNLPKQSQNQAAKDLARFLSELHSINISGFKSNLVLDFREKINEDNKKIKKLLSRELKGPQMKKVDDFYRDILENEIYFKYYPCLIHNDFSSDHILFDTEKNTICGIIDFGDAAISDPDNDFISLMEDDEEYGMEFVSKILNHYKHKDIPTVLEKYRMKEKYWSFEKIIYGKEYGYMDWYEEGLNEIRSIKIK

Tests used:
APH(2”)-IVa [1] = biological target: T1, APH(2”)-IVa (Enterococcus casseliflavus, UniProt O68183); assay: Coupled enzyme system activity assay (inhibition % and Ki); conditions: read-out: Ki (µM), inhibition constant; ATP-competitive; 0-2 mM MgATP, 100 µM kanamycin A, global fitting
APH(2”)-IVa [2] = biological target: T1, APH(2”)-IVa; conditions: compound at 500 µM, protein at 5 µM

SMILES | Ki (APH(2”)-IVa [1]) | ΔTm (°C) (APH(2”)-IVa [2])
Clc1cnc2[nH]ccc2c1-c1ccn[nH]1 [Compound 83] | 0.388 µM | –
Nc1ccc(Cl)cn1 [Compound F69] | – | 1.25 °C
